We go through 1 sequence from PMC6211226, “Intracellular Signaling by the comRS System in Streptococcus mutans Genetic Competence” (mSphere, 2018).

Construct, isoform or probe ends are uncertain for at least one entry. The comparison behind a weaker result is the experiment's own reference, which may not be listed here. Protein sequences can lack the tags named with them.

For this data set, the target named is T1, ComR (Streptococcus mutans UA159) (UniProt Q8DWI6).
T1 sequence (looked up): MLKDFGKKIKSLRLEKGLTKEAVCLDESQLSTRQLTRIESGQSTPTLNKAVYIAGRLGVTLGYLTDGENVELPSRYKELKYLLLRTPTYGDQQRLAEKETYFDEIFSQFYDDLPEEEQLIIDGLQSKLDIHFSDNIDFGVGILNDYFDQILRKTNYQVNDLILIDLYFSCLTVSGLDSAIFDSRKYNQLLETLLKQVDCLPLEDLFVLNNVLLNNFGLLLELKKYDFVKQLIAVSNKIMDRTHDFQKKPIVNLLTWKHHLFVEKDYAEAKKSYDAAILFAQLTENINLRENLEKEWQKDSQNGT
Put plainly: fluorescence polarization. To be noted: no peptide; Previously described reaction buffer (ref 53; composition not given) + 1 mM EDTA, 0.05 mg/ml salmon DNA, 1 nM probe, 37 C, 20 min; ComR dialyzed into PBS pH 7.4; recombinant protein; residues 1-304; label: 5' Bodipy FL-X; folded or branched DNA. A general note: Polarisation of emitted light reports the rotation of a fluorescent probe.

As for “ATGGGACATTTATGTCCTGTCCCCCACAGGACATAAATGTCCCAT [PcomX stem-loop probe]”, the binding result was “binds more weakly”.
